HIV-1 5' UTR: DMS reactivities by position

Data from the supplement of Ye et al. 2022, doi:10.1038/s41594-022-00746-2.

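Mutant RNA libraries with 1G, 2G or 3G starts, with or without cap, were folded at 37 °C for 30 min. Monomer and dimer bands were cut from native gels after folding in high salt (300 mM KCl, 5 mM MgCl2) or low salt (40 mM KCl, 0.1 mM MgCl2). Gel slices were treated with 170 mM dimethyl sulfate for 15 min at 37 °C and read by mutational profiling against an ethanol control.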

Sequence of the HIV-1 NL4-3 5' RNA, positions 1 to 437, as numbered in the source:
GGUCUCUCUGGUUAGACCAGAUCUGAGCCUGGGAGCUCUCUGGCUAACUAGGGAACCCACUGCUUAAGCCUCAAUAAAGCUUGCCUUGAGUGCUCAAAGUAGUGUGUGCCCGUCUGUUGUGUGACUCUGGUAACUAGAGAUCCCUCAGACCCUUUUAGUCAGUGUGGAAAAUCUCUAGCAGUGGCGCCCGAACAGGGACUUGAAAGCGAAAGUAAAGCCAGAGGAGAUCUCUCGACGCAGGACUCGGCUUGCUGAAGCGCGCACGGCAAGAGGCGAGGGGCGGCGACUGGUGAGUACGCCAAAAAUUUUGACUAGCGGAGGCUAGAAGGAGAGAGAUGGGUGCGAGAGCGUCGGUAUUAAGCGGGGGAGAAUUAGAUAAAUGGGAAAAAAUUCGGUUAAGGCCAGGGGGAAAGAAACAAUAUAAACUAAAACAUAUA

Scale: normalised reactivity, A and C only; low values point to paired or protected bases, higher values to unpaired ones.
Sample: 2G uncapped high-salt monomer.
One numbering serves 1G, 2G and 3G.
A position is written with its base.

position,domain,2G uncapped high-salt monomer
A19,TAR,0.03
A21,TAR,0.61
C23,TAR,1.34
A26,TAR,0.11
C28,TAR,0.03
C29,TAR,0.09
A34,TAR,1.23
C36,TAR,0.03
C38,TAR,0.03
C40,TAR,0.03
C44,TAR,0.03
A46,TAR,0.04
A47,TAR,0.12
C48,TAR,0.03
A50,TAR,0.12
A54,TAR,0.17
A55,TAR,0.31
C56,TAR,0.04
C57,TAR,0.03
C58,PolyA,0.97
A59,PolyA,0.52
C60,PolyA,0.36
C63,PolyA,0.21
A66,PolyA,1.06
A67,PolyA,0.81
C69,PolyA,0.03
C70,PolyA,0.03
C72,PolyA,0.08
A73,PolyA,0.05
A74,PolyA,0.75
A76,PolyA,0.31
A77,PolyA,0.88
A78,PolyA,0.78
C80,PolyA,0.38
C84,PolyA,0.50
C85,PolyA,0.31
A89,PolyA,0.52
C93,PolyA,0.03
C95,PolyA,0.56
A96,PolyA,0.32
A97,PolyA,0.47
A98,PolyA,0.38
A101,PolyA,0.19
C109,U5,0.16
C110,U5,0.18
C111,U5,0.30
C114,none,0.24
A124,none,1.14
C125,PAS,0.08
C127,PAS,0.03
A132,PBS,0.67
A133,PBS,1.69
C134,PBS,0.15
A136,PBS,0.10
A138,PBS,0.13
A140,PBS,0.39
C142,PBS,0.08
C143,PBS,0.03
C144,PBS,0.03
C146,PBS,0.13
A147,PBS,0.44
A149,PBS,0.10
C150,PBS,0.07
C151,PBS,0.82
C152,PBS,0.87
A157,PBS,0.98
C160,PBS,0.05
A161,PBS,0.50
A168,PBS,0.42
A169,PBS,0.66
A170,PBS,0.61
A171,PBS,0.52
C173,PBS,0.03
C175,PBS,0.03
A177,PBS,0.24
C179,PBS,0.82
A180,PBS,0.60

The last 5 entries again:

| position | domain | 2G uncapped high-salt monomer |
|---|---|---|
| C173 | PBS | 0.03 |
| C175 | PBS | 0.03 |
| A177 | PBS | 0.24 |
| C179 | PBS | 0.82 |
| A180 | PBS | 0.60 |